The source of these data is patent US20230285545A1.

In this assay the target is Human ACE2-Fc (human) (UniProt Q9BYF1).

In general, koff refers to the first-order rate constant of dissociation. A higher koff goes with fast dissociation. One may read the kon as a measure of how fast the partners come together. A low value points to slow association. The substance “recombinant receptor-binding domain (RBD) protein of SARS-CoV-2 spike protein (ligand)” yielded a koff of 0.0205 s⁻¹ and an on-rate constant (kon) of 1.33e+07 M⁻¹ s⁻¹.
